# Laboratory results as given in patent US20080138835A1 (priority 2004, published 2008).
# Assays:
# [1] = tested on: S. aureus mutants
# [2] = tested on: S. epidermidis; assay: Serial passages in drug-containing broth (MIC); assay type: cell-based
# [3] = tested on: S. hemolyticus; assay: Serial passages in drug-containing broth (MIC); assay type: cell-based; details: S. hemolyticus NRS116, MRSH, MupS
# [4] = tested on: S. pyogenes; assay: Serial passages in drug-containing broth (MIC); assay type: cell-based
smiles,measurement,setting,value
C/C(=C\C(=O)OCCCCCCCCC(=O)O)C[C@@H]1OC[C@H](C[C@@H]2O[C@H]2[C@@H](C)[C@H](C)O)[C@@H](O)[C@H]1O [Mupirocin],susceptibility of laboratory-generated Compound 1-resistant mutants (cross-resistance),[1],still susceptible
same,MIC After 20 passages,"[2]; S. epidermidis 936528, MRSE, HL-MupR","4,096 μg/ml"
same,MIC After 20 passages,"[2]; S. epidermidis 936606, MRSE, MupS",2 µg/mL
same,MIC After 20 passages,[3],1 µg/mL
same,MIC After 20 passages,"[4]; S. pyogenes ATCC19615, EryS",4 µg/mL
same,MIC After 20 passages,"[4]; S. pyogenes MB000143, EryR",0.5 µg/mL
